Assay results taken from patent publication US7601526B2 (priority 2004, dated 2009).

Tests used:
[1] = test system: F. tularensis strain 17137; assay: standard minimum inhibitor concentration (MIC) assay, strain 17137; assay type: cell-based
[2] = biological target: Ft FabI (Francisella tularensis subsp. tularensis, UniProt Q5NGQ3); assay: Ft FabI inhibition dose response assay (NADH consumption, absorbance at 340 nm); settings: read-out: Ft FabI IC50; compounds titrated from 30 to 0.025 uM; 25 uM crotonyl-ACP, 50 uM NADH
[3] = test system: F. tularensis strain 17135; assay: standard minimum inhibitor concentration (MIC) assay, strain 17135; assay type: cell-based

For `CN(Cc1cc2ccccc2n1C)C(=O)/C=C/c1cnc2c(c1)CCC(=O)N2`, the MIC [1] was 2 µg/mL (≈ 5.34 µM), the pIC50 [2] was 7.33 and the MIC [3] was 0.5 µg/mL (≈ 1.34 µM).

pIC50: −log10 of the molar value. Values after ≈ are worked out from the molar mass of the structure shown.
